Data as given in PubChem BioAssay AID1224833 (University of Georgia, 2016)
The whole screen tested about 12,000 reagents; this is a random part of them. In the full data, about 5,600 (46%) got an active call. 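Active calls cover z-scores past 1 in both directions, so they include lowered as well as raised rotavirus replication.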 Unmarked entries are inactive.

- Test: 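Human genes whose knock-down alters rotavirus replication in monkey cells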 (primary screen)
- Cell system: monkey MA104 kidney cells
- Reagent: siRNA pool against human genes, 50 nM
- Timing: 48 h knock-down before infection; read 24 h after infection
- Treatment: infection with rotavirus strain RV3 two days after transfection; infectious dose for this stage not given
- Detection: 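Rotavirus antigen per well by fluorescent immunoassay, normalised to non-targeting control wells on each plate and given as a standard z-score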
- Direction: z-score vs non-targeting control: higher = more rotavirus replication than with non-targeting control
- Call rule: In these data the active calls have z-score vs non-targeting control at about -1 or lower, or at about 1 or higher
- Meaning of the calls: active = z-score beyond 1 either way; inactive = z-score within 1 of zero

target gene | z-score vs non-targeting control
CCDC24 | 0.76
HPS3 | 0.0245
ABCA3 | -2.79 (active)
ASPSCR1 | 0.21
SHOC1 | 0.0668
EXOC5 | -1.43 (active)
METAP1 | 0.953
OR4D6 | -1.06 (active)
GLDC | -0.901
L3HYPDH | 1.86 (active)
ARID4B | 1.33 (active)
PEX11G | -1.45 (active)
IRAG1 | 0.0293
CYP2B6 | 0.892
ZFP82 | -0.884
IGSF11 | -1.72 (active)
TAS2R13 | 0.143
SPIN2A | 0.565
STX17 | -0.329
PCDHGB7 | -0.736
SRSF3 | 0.838
XPA | 0.822
AGT | 0.537
ARID5A | -1.37 (active)
DDB2 | 1.95 (active)
TBC1D9B | 1.02 (active)
CRB1 | -1.05 (active)
ST6GALNAC4 | -1.17 (active)
HAVCR1 | -2.37 (active)
PCDHGA7 | 1.37 (active)
ANKRD34A | -1.45 (active)
OR2F2 | -0.993
CSPP1 | -1.12 (active)
GTF2E2 | 0.6
DNAJC5B | -1.29 (active)
FAM209A | -0.462
SP4 | -2 (active)
RAB34 | -0.486
CSPG5 | 0.843
KLRG2 | 0.966
NTNG2 | -0.471
ZSWIM8 | -2.35 (active)
CD1D | 0.822
DNAJC8 | -2.78 (active)
DGKE | -1.79 (active)
CDH11 | -0.0584
TSC22D4 | -0.0202
MUS81 | -3.31 (active)
PCDHB12 | -2.09 (active)
CTTNBP2 | 0.334
STC1 | -0.295
PRAMEF9 | -0.0836
PDE6B | -1.28 (active)
PCOLCE | -1.12 (active)
SYT9 | -0.0627
GPX1 | -0.95
LDLR | -1.79 (active)
LBX2 | -4.72 (active)
CSHL1 | -0.747
IFIT5 | -0.0028
HNF4G | 0.808
RTCB | -1.81 (active)
ANKFN1 | 0.7
SERPINE2 | 0.185
ZBTB1 | -0.54
PURB | 1.33 (active)
POU1F1 | -1.19 (active)
CEACAM8 | -1.42 (active)
ARHGEF9 | -0.363
CRYGN | -1.8 (active)
GRAMD1B | -0.916
ACOXL | -1.58 (active)
RASSF7 | -0.403
CRYBA1 | 2.14 (active)
SLC67A1-AS | 1.34 (active)
BTNL2 | -2.33 (active)
PPIA | -1.78 (active)
HLCS | 1.47 (active)
ADGRF2P | -0.681
SEC24D | 0.372
STXBP6 | -0.665
FARP2 | -0.553
HBE1 | 1.05 (active)
PLLP | -0.664
MAMLD1 | -1.9 (active)
BUD13 | -0.471
ST6GALNAC5 | -1.02 (active)
LIPI | -0.877
RGMB | 0.0488
UCN2 | -0.798
OR51E1 | -1.01 (active)
DOK2 | -0.837
MPHOSPH10 | -1.05 (active)
LRRC3B | -0.583
ZDHHC23 | 0.816
RSPH14 | -0.524
MVB12B | 0.104
CENPS | -0.247
ULBP1 | -1.78 (active)
PPIG | 1.18 (active)
COMMD10 | -1.33 (active)
KAT8 | -1.95 (active)
SSR4 | 0.449
N4BP2L1 | -1.24 (active)
MIEF1 | 1.81 (active)
WFDC12 | -0.022
SCGB1C1 | 1.04 (active)
SLC44A1 | -1.45 (active)
SEC13 | 1.32 (active)
ISCU | -0.836
BAK1 | -0.69
CDK5RAP2 | -0.551
SPINK8 | 1.51 (active)
RTL5 | -1.15 (active)
ADAM21 | 1.49 (active)
GTPBP10 | 1.02 (active)
TMEM203 | 1.29 (active)
RPA4 | -0.276
COQ6 | -0.827
PIGC | -0.705
SLC25A1 | -2.03 (active)
ARHGEF35 | -0.508
CD244 | 0.693
GHRHR | -1.13 (active)
PHLDA1 | -0.871
MCAM | -0.904
SDC4 | -1.27 (active)
FLI1 | 2.93 (active)
CSMD2 | -0.959
ZNF208 | -1.28 (active)
HDHD3 | 0.794
RAB11FIP4 | 0.375
PRDM15 | 0.195
TSNARE1 | 1.58 (active)
SELP | -1.36 (active)
RP2 | -1.34 (active)
ATAD5 | 0.125
PNMA3 | -1.71 (active)
MEOX1 | -0.616
GALT | -1.03 (active)

A few values from above:
SCGB1C1, z-score vs non-targeting control = 1.04 (active)
MCAM, z-score vs non-targeting control = -0.904
Value of N4BP2L1 in “z-score vs non-targeting control”: -1.24 (active)
For “z-score vs non-targeting control”, GTPBP10 shows 1.02 (active)
Entry for FARP2 in “z-score vs non-targeting control”: -0.553
Value of SEC13 under “z-score vs non-targeting control”: 1.32 (active)
